# PubChem BioAssay AID504761 | Drosophila RNAi Screening Center | 2011
# Assay: 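Genome-wide fly cell screen for genes dengue virus requires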 (primary screen)
# System: D.Mel-2 cells from Drosophila
# Knock-down reagent: long dsRNA against Drosophila genes
# Treatment: infection with dengue virus type 2; dose and infection time not stated
# Detection: 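Per well on two replicate plates, imaging gave the percent of cells positive for viral envelope protein, ranked by infection, and a nuclear count of cells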
# Direction: infection score: higher = more virus-infected cells; cell count: higher = more cells in the well
# Rule for the call: 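Low infection ranks in the two replicates (chance level up to 0.065) followed by a retest with a 1.5-fold or larger significant decrease, p below 0.05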
# Calls: active = confirmed: knock-down lowers infection; inactive = not picked or not confirmed
# The deposit covers about 22,000 reagents; below is a random part of those that have a named target and a result. Of all reagents, 116 (0.52%) are marked active. 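Calls depend on retest data that are not deposited; infection was ranked per plate without normalising between plates; the unit of the infection score is not given.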 Raw values vary from plate to plate and are shown uncorrected. Unmarked entries are inactive. Reagents against one gene are numbered here. Not given: the amount of reagent, the time to read-out.
predicted target,reagent no.,"infection score, replicate 1","infection score, replicate 2","cell count, replicate 1","cell count, replicate 2"
CG5267,1,9.56,12.4,6422,6763
hiro,1,6.36,13.7,6713,5641
hiro,2,16.9,14,6064,6084
sm,1,0.69,1.82,6087,6004
sm,2,7.48,25.2,1845,5325
Rai1,1,4.1,1.5,6074,6411
Rai1,2,23.8,16.3,4411,3501
CG10472,1,7.35,5.03,6518,6643
CG10472,2,6.53,11.7,6064,6019
mey,1,7.91,5.17,417,6091
mey,2,12.5,5.43,6811,6410
CG10300,1,15.2,16,5265,5340
Syt4,1,3.78,4.06,6344,6582
mrva,1,5.84,5.6,6766,6780
mrva,2,11.6,1.77,4854,6425
mrva,3,6.72,2.52,5428,5440
grn,1,8.59,12.3,6435,6381
grn,2,2.02,2.09,6181,6024
noc,1,6.47,10.8,5814,6115
CG40298,1,6.26,7.72,6089,6202
BRWD3,1,7.65,6.78,3753,4071
BRWD3,2,2.88,7.01,4510,4609
REPTOR,1,2.03,3.27,6537,5657
REPTOR,2,6,10.8,4465,4299
CG32832,1,2.88,0.69,6136,5773
Non2,1,18.2,22.6,6134,5072
Non2,2,4.72,4.75,6270,6207
CG14655,1,2.11,10.8,6539,6367
CG14655,2,1.31,11.1,6398,6009
Sec63,1,0.52,4.41,6591,6093
kmr,1,1.14,1.63,6206,6392
kmr,2,0.57,1.99,6518,6321
kmr,3,6.93,7.94,6736,6638
kmr,4,2.75,2.21,6154,6244
kmr,5,16.5,,3412,421
CG4375,1,3.07,1.14,6716,6463
CG4375,2,2.9,3,7149,7000
Pez,1,11,4.52,5678,6764
Pez,2,26.6,10.1,6436,6344
dpr13,1,16.6,8.23,6794,6681
dpr13,2,27.6,9.37,6207,6765
dpr13,3,0.61,1.55,6409,6535
kst,1,10.4,10.7,5743,3693
Oatp58Da,1,35.8,27.9,5862,3985
Oatp58Da,2,11.6,7.75,6009,6384
GstE1,1,,16.3,493,3003
GstE1,2,0.38,1.08,6290,6183
CG8520,1,7.64,13.1,6207,6112
dgt3,1,15,10.5,6084,6419
CG17211,1,10.4,7.36,5654,5934
CG3513,1,2.24,2.34,6423,6202
p,1,8.17,9.07,2498,1466
p,2,3.69,7.41,7082,6479
Rat1,1,5.34,3.59,5299,5455
CG4789,1,16.9,7,6552,6298
Srx,1,8.27,2.38,5914,7064
CG13689,1,5.48,5.66,6237,6153
CG17027,1,13.3,22.5,7042,5760
CG17027,2,1.88,2.85,6026,6103

Only “infection score, replicate 1” (2 entries from above):
sm #2 = 7.48
Rai1 #1 = 4.1
